Compound potency records, mixed from different reports. Data source: NIAID ChemDB in PubChem.

Shared fields: tests in culture; agent: Rhinovirus; cells: HeLa; read-out: EC50

ECn: concentration that inhibits the pathogen or its effect by n%. Neighbouring rows are from separate reports.

| smiles | strain or isolate | read by | result |
|---|---|---|---|
| Cc1nc(-c2cc(C)c(OCCCc3cc(C4CC4)no3)c(C)c2)no1 | Serotype 22 | cytopathic effect | 0.011 µg/mL |
| CCN(CC)c1cc(-c2ccc(OC)cc2OC)on1 | Serotype 14 | cytopathic effect | >362 µM |
| CS(=O)(=O)c1ccc(Cc2ccc(Cl)c(Cl)c2)nc1 | TYPE 68 | cytopathic effect | >10 µg/mL |
| CCc1ccc(CCCOc2ccc(-c3noc(C(F)F)n3)cc2)nn1 | serotypes 3 4 5 9 16 18 38 66 75 67 | cytopathic effect | 0.64 µg/mL |
| C#CCOc1cc(OC)ccc1-c1cc(N(CC)CC)no1 | Serotype 51 (group B) | cytopathic effect | >40 µM |
| Cc1cc(CCCCCOc2c(Cl)cc(C3=NCCO3)cc2Cl)on1 | TYPE 72 | plaque count | 0.62 µg/mL |
| CCN(CC)c1noc(-c2ccc(O)cc2O)c1Cc1c(N(CC)CC)noc1-c1ccc(OC)cc1O | Serotype 14 | cytopathic effect | >3.5 µM |
| CS(=O)(=O)c1ccc(Oc2ccc(C(=O)c3ccccc3)cc2)nc1 | TYPE 74 | cytopathic effect | >10 µg/mL |
| Cc1nc(-c2cc(C)c(OCCCc3ccc(C(F)F)nn3)c(C)c2)no1 | serotypes 3 4 5 9 16 18 38 66 75 67 | cytopathic effect | 0.074 µg/mL |
| COc1ccc(-c2cc(N3CCCC3)no2)c(O)c1 | Serotype 63 (group B) | cytopathic effect | >384 µM |
| CCS(=O)(=O)c1ccc(Cc2ccc(Cl)c(Cl)c2)nc1 | TYPE 64 | cytopathic effect | 0.6 µg/mL |
| Cc1ccc(CCCCCOc2ccc(-c3noc(C(F)F)n3)c(C)c2)nn1 | serotypes 3 4 5 9 16 18 38 66 75 67 | cytopathic effect | 0.23 µg/mL |
| CS(=O)(=O)c1ccc(NCc2ccc(Cl)c(Cl)c2)nc1 | TYPE 64 | cytopathic effect | 0.3 µg/mL |
| CCOc1cc(OC)ccc1-c1cc(N(CC)CC)no1 | Serotype 14 | cytopathic effect | >90 µM |
| CS(=O)(=O)c1ccc(NCc2ccc(Br)cc2)nc1 | TYPE 64 | cytopathic effect | 6.3 µg/mL |
| N#Cc1cccnc1Oc1ccc(C(=O)c2ccccc2)cc1 | TYPE 64 | cytopathic effect | >10 µg/mL |
| CS(=O)(=O)c1ccc(Cc2ccc(Cl)cc2)nc1 | TYPE 64 | cytopathic effect | 1.3 µg/mL |
| Cc1nc(-c2cc(C)c(OCCCc3cc(C(F)(F)F)no3)c(C)c2)no1 | Serotype 89 | cytopathic effect | 0.019 µg/mL |
| CCS(=O)(=O)c1ccc(NCc2ccc(Cl)cc2)nc1C#N | TYPE 1A | cytopathic effect | 6.3 µg/mL |
| COC(=O)c1cc(CCCOc2c(C)cc(-c3noc(C)n3)cc2C)on1 | Serotype 67 | cytopathic effect | 0.047 µg/mL |
| COc1ccc(C/C=C/Oc2cc(C)c(-c3noc(C(F)F)n3)c(C)c2)nn1 | serotypes 3 4 5 9 16 18 38 66 75 67 | cytopathic effect | 0.29 µg/mL |